From paper PMC3781045 come the findings set out here.

The data set addresses T1, rZur (ZurPA, Np20) (UniProt Q9HT74).
T1 sequence (looked up): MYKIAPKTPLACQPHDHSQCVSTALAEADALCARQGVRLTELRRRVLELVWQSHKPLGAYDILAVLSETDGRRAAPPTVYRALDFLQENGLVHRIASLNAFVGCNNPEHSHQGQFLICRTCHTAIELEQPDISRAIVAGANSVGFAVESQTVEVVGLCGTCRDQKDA
The experiment in a line: competition with a labelled probe. The conditions noted are these: 100x unlabeled znuA promoter as specific competitor, 1 uM ZnCl2; 10 mM Tris-HCl pH 8.0, 40 mM KCl, 10 mM MgCl2, 1 mM DTT, 5% glycerol, 1 uM ZnCl2, 0.5 ug salmon sperm DNA; room temperature 30 min; gel at 4 C; recombinant protein; residues 1-167; protein details: N-terminal Strep-tag II; label: 32P (5' end, T4 PNK); probe letters rebuilt from the primers and the genome.

For at least one entry, the source does not settle the construct or the ends of the probe. At least one verdict rests on a figure or table, not on a statement of the authors. Tags and fusion partners may be left off the protein sequences shown.

For “CGGCGAAGCCAGCAGGAACAGGGCGAAGCAGGCGGACAGCAGGGCAAAGGGACGCAGGGTCACGGCGGCACTCACATGAAAGGTGGTTAGCGGGTAATATAATAACGTCTCTACCCTCGAGCGTCGCAGCCCATGTACAAGATTGCGCCCAAGACCCCGCTGGCCTGCCAGCCCCATGACCACAGCCAGTGCGTCAGCA (double strand) [znuA promoter fragment]”, the binding result was “binds”.
